A mixed list of measured activities; the numbers were collected in NIAID ChemDB.

Shared fields: tests in culture; species: Hepatitis C virus; read-out: inhibition

Conditions beyond the fields shown may differ between rows. Blank or dashed fields: not listed here. Inhibition is in % at the dose shown (toxicity tests: loss of growth or viability).

smiles | setting | method | strain | cells | tested at | value
COC(=O)C1=CO[C@@H](O)[C@H]2[C@@H]1[C@H](O)C[C@]2(C)O | - | entry | - | - | 20 µg/mL | 61.2%
O=C(Nc1cccc(-c2cccc(F)c2)c1)C1CCN(Cc2cccc(O)c2)CC1 | - | PCR | JFH-1 | Huh7 | 15 µM | ≥40%
CC1(C)CC[C@@]2(C(=O)NCCn3cc(CN(Cc4cn(C(C)(C)C)nn4)Cc4cn(C(C)(C)C)nn4)nn3)C(C1)C1=CCC3[C@@]4(C)CC[C@H](O)C(C)(C)C4CC[C@@]3(C)[C@]1(C)C[C@H]2O | - | luciferase / entry | - | Huh7 | 1 µM | 1.2%
CC1(C)CC[C@]2(C(=O)O)CC[C@]3(C)C(=CC[C@@H]4[C@@]5(C)CC[C@H](O)C(C)(C)[C@@H]5CC[C@]43C)[C@@H]2C1 | pseudotyped | luciferase / entry | - | Huh7 | 1 µM | 10.6%
COC(=O)C1=CO[C@@H](OC2O[C@H](CO)[C@@H](O)[C@H](O)[C@H]2O)[C@@H]2[C@H](C)[C@@H](O)C[C@H]12 | - | entry | - | - | 20 µg/mL | 0%
CC1(C)CC[C@@]2(C(=O)NCc3cn(CC(Cn4cc(CNC(=O)[C@]56CCC(C)(C)CC5C5=CCC7[C@@]8(C)CC[C@H](O)C(C)(C)C8CC[C@@]7(C)[C@]5(C)C[C@H]6O)nn4)n4cc(CNC(=O)[C@]56CCC(C)(C)CC5C5=CCC7[C@@]8(C)CC[C@H](O)C(C)(C)C8CC[C@@]7(C)[C@]5(C)C[C@H]6O)nn4)nn3)C(C1)C1=CCC3[C@@]4(C)CC[C@H](O)C(C)(C)C4CC[C@@]3(C)[C@]1(C)C[C@H]2O | - | luciferase / entry | - | Huh7 | 5 µM | 32.2%
COc1cccc(O)c1CN1CCC(C(=O)Nc2ccc(Oc3ccccc3F)cc2)CC1 | - | PCR | JFH-1 | Huh7 | 5 µM | ≥40%
O=C1N/C(=N\c2nnc(-c3ccc(Cl)cc3)s2)S/C1=C\c1c(F)cccc1Cl | - | MTS | - | Huh7.5-FGR-JC1-Rluc2A | 100 µM | 0%
COC(=O)C1=CO[C@@H](O)[C@H]2[C@@H]1C=C[C@@]2(O)CO | - | entry | - | - | 20 µg/mL | 21.1%
COc1cc(Cc2cnc(/N=C3\C(=O)N(CN4CCC(C)CC4)c4ccc(F)cc43)nc2N)cc(OC)c1OC | - | - | - | Huh7 | 50 µg/mL | 100%
O=C(Nc1cccc(-c2cccc(Cl)c2)c1)C1CCN(Cc2ccc(O)cc2)CC1 | - | PCR | JFH-1 | Huh7 | 15 µM | ≥40%
CC1(C)CC[C@@]2(C(=O)NCc3cn(CC(CO)(Cn4cc(CNC(=O)[C@]56CCC(C)(C)CC5C5=CCC7[C@@]8(C)CC[C@H](O)C(C)(C)C8CC[C@@]7(C)[C@]5(C)C[C@H]6O)nn4)Cn4cc[n+](CNC(=O)[C@]56CCC(C)(C)CC5C5=CCC7[C@@]8(C)CC[C@H](O)C(C)(C)C8CC[C@@]7(C)[C@]5(C)C[C@H]6O)n4)nn3)C(C1)C1=CCC3[C@@]4(C)CC[C@H](O)C(C)(C)C4CC[C@@]3(C)[C@]1(C)C[C@H]2O | - | luciferase / entry | - | Huh7 | 1 µM | 45.4%
COc1cc(Cc2cnc(/N=C3\C(=O)N(CN4CCN(c5cccc(C(F)(F)F)c5)CC4)c4ccc(F)cc43)nc2N)cc(OC)c1OC | - | - | - | Huh7 | 50 µg/mL | 88%
CC1(C)CC[C@@]2(C(=O)NCc3cn(CCOCCn4cc(CNC(=O)[C@]56CCC(C)(C)CC5C5=CCC7[C@@]8(C)CC[C@H](O)C(C)(C)C8CC[C@@]7(C)[C@]5(C)C[C@H]6O)nn4)nn3)C(C1)C1=CCC3[C@@]4(C)CC[C@H](O)C(C)(C)C4CC[C@@]3(C)[C@]1(C)C[C@H]2O | - | luciferase / entry | - | Huh7 | 5 µM | 83.7%
COc1cc([C@H]2O[C@@H](c3cc(OC)c4c(c3)OCO4)[C@@H](C)[C@@H]2C)cc2c1OCO2 | - | - | Cell culture J6/JFH-1 | Huh7.5 | 25 µM | 95%
COC(=O)C1=CO[C@@H](OC2O[C@H](CO)[C@@H](O)[C@H](O)[C@H]2O)[C@H]2[C@@H]1[C@H](O)[C@H](O)[C@]2(C)O | - | entry | - | - | 20 µg/mL | 0%
COc1cccc(N2CCN(CN3C(=O)/C(=N\c4ncc(Cc5cc(OC)c(OC)c(OC)c5)c(N)n4)c4cc(F)ccc43)CC2)c1 | - | - | - | Huh7 | 50 µg/mL | 100%
CCn1cc(CNC(=O)[C@]23CCC(C)(C)CC2C2=CCC4[C@@]5(C)CC[C@H](O)C(C)(C)C5CC[C@@]4(C)[C@]2(C)C[C@H]3O)nn1 | - | luciferase / entry | - | Huh7 | 5 µM | 12.2%
O=C(OCC1=C[C@@H](O)[C@@H]2C=CO[C@@H](OC3O[C@H](CO)[C@@H](O)[C@H](O)[C@H]3O)[C@H]12)c1ccc(O)cc1 | - | entry | - | - | 20 µg/mL | 0%
COc1cc([C@@H]2O[C@H](c3cc(OC)c4c(c3)OCO4)[C@@H](C)[C@@H]2C)cc(OC)c1OC | - | - | Cell culture J6/JFH-1 | Huh7.5 | 12.5 µM | 100%
Cn1c(=O)c2c(ncn2C)n(C)c1=O | - | luciferase / replicon | JFH-1 | Huh7.5 | 500 µM | 33.56%
CC1(C)CC[C@]2(C(=O)O)[C@H](O)C[C@]3(C)C(=CC[C@@H]4[C@@]5(C)CC[C@H](O)C(C)(C)[C@@H]5CC[C@]43C)[C@@H]2C1 | pseudotyped | luciferase / entry | - | Huh7 | 5 µM | 9%
COc1cccc(-c2ccccc2NC(=O)C2CCN(Cc3cc(C)c(O)c(C)c3)CC2)c1 | - | PCR | JFH-1 | Huh7 | 5 µM | ≥70%
CCn1cc(C(=O)O)c(=O)c2cc(F)c(N3CCN(CN4C(=O)/C(=N\c5ncc(Cc6cc(OC)c(OC)c(OC)c6)c(N)n5)c5cc(F)ccc54)CC3)cc21 | - | - | - | Huh7 | 50 µg/mL | 95%

3 of the rows above, restated:

smiles	setting	method	strain	cells	tested at	value
CC1(C)CC[C@]2(C(=O)O)CC[C@]3(C)C(=CC[C@@H]4[C@@]5(C)CC[C@H](O)C(C)(C)[C@@H]5CC[C@]43C)[C@@H]2C1	pseudotyped	luciferase / entry	-	Huh7	1 µM	10.6%
COc1cc([C@@H]2O[C@H](c3cc(OC)c4c(c3)OCO4)[C@@H](C)[C@@H]2C)cc(OC)c1OC	-	-	Cell culture J6/JFH-1	Huh7.5	12.5 µM	100%
CC1(C)CC[C@@]2(C(=O)NCc3cn(CC(Cn4cc(CNC(=O)[C@]56CCC(C)(C)CC5C5=CCC7[C@@]8(C)CC[C@H](O)C(C)(C)C8CC[C@@]7(C)[C@]5(C)C[C@H]6O)nn4)n4cc(CNC(=O)[C@]56CCC(C)(C)CC5C5=CCC7[C@@]8(C)CC[C@H](O)C(C)(C)C8CC[C@@]7(C)[C@]5(C)C[C@H]6O)nn4)nn3)C(C1)C1=CCC3[C@@]4(C)CC[C@H](O)C(C)(C)C4CC[C@@]3(C)[C@]1(C)C[C@H]2O	-	luciferase / entry	-	Huh7	5 µM	32.2%